Results of unrelated studies side by side (data: NIAID ChemDB).

All rows: tests in culture; species: HIV-1

Blank or dashed fields: not listed here. ECn is the concentration giving n% inhibition of infection, replication or growth. Lines come from different laboratories, so protocols vary.

structure	strain or isolate	method	mutations	conditions	cells	read-out	result
CCCCCc1cc2cn(COCCO)c(=O)nc2o1	LAI	RT activity	-	-	PBMC	EC50	2.7 µM
CCOc1cccc(Cc2cc(C3CCN(C[C@H]4CN([C@@H](C(=O)O)C(C)(C)C)C[C@@H]4c4cccc(F)c4)CC3)n(CC)n2)c1	BaL	β-galactosidase	-	50% human serum	HeLa	EC50	<0.1 µM
Fc1cccc(F)c1C1SCc2nc3ccccc3n21	-	cytopathic effect	RT-Y181C	-	CEM	EC50	13.8 µM
C#C[C@]1(CO)O[C@@H](n2cnc3c(N)nc(F)nc32)C[C@@H]1OC(=O)CCCCCCCCCCCCC	NL4-3	luminescence	-	pseudotyped	U373-CD4-CXCR4	EC50	0.0015 µM
Cc1ccnc2c1NC(=O)c1cccnc1N2C1CC1	-	-	RT-L74V	-	MT-4	EC95	0.1 µM
CN1C(=O)N(Cc2ccccc2)S(=O)(=O)c2cscc21	IIIB	syncytia	-	-	MT-4	EC50	7.1 µM
CCn1nc(Cc2ccc(C#N)cc2)cc1C1CCN(C[C@H]2CN([C@@H](C(=O)O)C(C)(C)C)C[C@@H]2c2cccc(F)c2)CC1	BaL	β-galactosidase	-	50% human serum	HeLa	EC90	0.0037 µM
CCN1C(=O)N(Cc2ccccc2Cl)S(=O)(=O)c2cscc21	IIIB	syncytia	-	-	MT-4	EC50	8.7 µM
C#C[C@]1(CO)O[C@@H](n2cnc3c(NC(=O)CCCCCCCCCCCCC)nc(F)nc32)C[C@@H]1OC(=O)CC(C)(C)c1c(C)cc(C)cc1OC(C)=O	NL4-3	luminescence	-	pseudotyped	U373-CD4-CXCR4	EC50	0.0415 µM
CC(C)=CCN1C(C)C(=O)Nc2ccc(Cl)cc2S1(=O)=O	IIIB	cytopathic effect / MTT	-	-	MT-4	EC50	0.8 µM
CCCCCCCCC#Cc1cn(C/C=C/C(O)CO)c(=O)[nH]c1=O	LAI	RT activity	-	-	PBMC	EC50	57.3 µM
C#C[C@]1(CO)O[C@@H](n2cnc3c(N)nc(F)nc32)C[C@@H]1OC(=O)CCCCCCCCC	NL4-3	luminescence	-	pseudotyped	U373-CD4-CXCR4	EC50	0.0013 µM
C=CCOC(=O)OCOP(=O)(CO[C@H](C)Cn1cnc2c(N)ncnc21)OCOC(=O)OCC=C	-	p24	-	-	MT-4	EC50	1.61 µM
C1CNCCNCCCN2CCCNCCNCCCN(C1)CC2	168.10	cytopathic effect / MTT	-	-	SupT1 + Sup-T1	EC50	6 µg/mL
C=CCOC(=O)OCOP(=O)(O)COCCn1cnc2c(N)ncnc21	IIIB	p24	-	-	MT-4	EC50	23.7 µM
C#C[C@]1(CO)O[C@@H](n2cnc3c(N)nc(F)nc32)C[C@@H]1OC(=O)C(C)(C)C	NL4-3	luminescence	-	pseudotyped	U373-CD4-CXCR4	EC50	0.2625 µM
COc1c(CC=C(C)C)c(O)cc2oc(=O)c(-c3ccc(O)cc3O)cc12	-	syncytia	-	-	MOLT-4/OKM-1(HIV-1) + MOLT-4	EC50	<20 µg/mL
CC1(C)[C@@H](O[C@H]2O[C@H](C(=O)O)[C@@H](O)[C@H](O)[C@H]2O[C@@H]2O[C@H](C(=O)O)[C@@H](O)[C@H](O)[C@H]2O)CC[C@]2(C)[C@H]3C(=O)C=C4[C@@H]5C[C@@](C)(C(=O)O)CC[C@]5(C)CC[C@@]4(C)[C@]3(C)CC[C@@H]12	-	RT activity	-	-	MT-4	EC50	48 µM
Nc1ncnc2c1ncn2CCOCP(=O)(OCOC(=O)OC1CCCCC1)OCOC(=O)OC1CCCCC1.O=C(O)/C=C/C(=O)O	IIIB	p24	-	-	MT-4	EC50	23.1 µM
CC(C)CN(C[C@@H](O)[C@H](Cc1ccccc1)NC(=O)O[C@H]1[C@H]2CCCO[C@H]2O[C@@H]1C)S(=O)(=O)c1ccc(N)cc1	TM	p24	PR-L10I K14R R41K M46I I54V L63P A71V V82A L90M I93L	-	PBMC	EC50	0.26 µM
C1CNCCNCCCN(CCCN2CCCNCCNCCCNCC2)CCNC1	168.10	cytopathic effect / MTT	-	-	SupT1 + Sup-T1	EC50	0.2 µg/mL
CC(C)CN(C[C@@H](O)[C@H](Cc1ccccc1)NC(=O)O[C@@H]1[C@@H]2CCCO[C@@H]2O[C@H]1C)S(=O)(=O)c1ccc(N)cc1	TM	p24	PR-L10I K14R R41K M46I I54V L63P A71V V82A L90M I93L	-	PBMC	EC50	0.24 µM
Nc1nc(NC2CC2)c2ncn([C@H]3C=C[C@@H](CO)C3)c2n1	SW3-10125R	cytopathic effect / MTT	RT M41L A62V T69SSS insertion V75V/A M184I L210W T215Y	-	MT-4	EC50	22.7 µM
c1cc(CCN2CCCNCCNCCCNCC2)ccc1CCN1CCCNCCNCCCNCC1	RF	cytopathic effect / MTT	-	-	MT-4	EC50	>250 µg/mL
CC(C)c1nc(SCC(N)=O)n(Cc2ccncc2)c1CC1CCCCC1	IIIB	cytopathic effect / MTT	-	-	MT-4	EC50	3.75 µM
CC(C)(C)NC(=O)[C@@H]1C[C@@H]2CCCC[C@@H]2CN1C[C@@H](O)[C@H](Cc1ccccc1)NC(=O)[C@H](CC(N)=O)NC(=O)c1ccc2ccccc2n1	IIIB	cytopathic effect / MTT	-	-	MT-4	EC50	0.023 µM
O=C1c2ccccc2C(=O)N1CCOC(=S)Nc1ccc(I)cc1	IIIB	p24	-	-	C8166	EC50	<0.04 µM
CC(C)OC(=O)OCOP(=O)(CO[C@H](C)Cn1cnc2c(N)ncnc21)OCOC(=O)OC(C)C	-	p24	-	-	MT-4	EC50	2.31 µM
CCCCOc1ccc(Cc2cc(C3CCN(C[C@H]4CN([C@@H](C(=O)O)C(C)(C)C)C[C@@H]4c4cccc(F)c4)CC3)n(CC)n2)cc1	BaL	β-galactosidase	-	50% human serum	HeLa	EC50	<0.033 µM
C=CC(C)(C)c1cc(/C=C/C(=O)c2ccc(O)cc2)c(OC)cc1O	-	syncytia	-	-	MOLT-4/OKM-1(HIV-1) + MOLT-4	EC50	<20 µg/mL
c1cc(CN2CCCNCCCNCCNCCC2)ccc1CN1CCCNCCCNCCNCCC1	NL4-3	cytopathic effect / MTT	-	-	MT-4	EC50	0.04 µg/mL
CC(C)Nc1cccnc1N1CCN(C(=O)c2cc3cc(NS(C)(=O)=O)ccc3[nH]2)CC1	IIIB	cytopathic effect / MTT	-	-	MT-4	EC50	0.01 µM
CC1NS(=O)(=O)c2cc(Cl)ccc2NC1=O	IIIB	cytopathic effect / MTT	-	-	MT-4	EC50	>200 µM
C#C[C@]1(CO)O[C@@H](n2cnc3c(N)nc(F)nc32)C[C@@H]1O	NL4-3	luminescence	-	pseudotyped	U373-CD4-CXCR4	EC50	0.0065 µM
Cc1ccnc2c1NC(=O)c1cccnc1N2C1CC1	B-1 (RT L100V K103R/K Y188H)	cytopathic effect	RT-L100V K103R/K Y188H	-	CEM	EC50	0.05 µg/mL
COC(=O)[C@@H]1CCCN1P(=O)(OC[C@H]1O[C@@H](n2cc(C)c(=O)[nH]c2=O)CC1N=[N+]=[N-])Oc1ccccc1	ROD	MTT	-	-	MT-4	EC50	0.898 µM
CCn1nc(Cc2ccc(OC(F)(F)F)cc2)cc1C1CCN(C[C@H]2CN([C@@H](C(=O)O)C(C)C)C[C@@H]2c2cccc(F)c2)CC1	BaL	β-galactosidase	-	-	HeLa	EC50	<0.0037 µM
Cc1cc(C)cc(Cc2c(C(C)C)nc(SCC(N)=O)n2COCc2ccccc2)c1	IIIB	cytopathic effect / MTT	-	-	MT-4	EC50	0.15 µM
O=C(O)c1cn2c3c(c(N4CCN(c5ccccn5)CC4)c(F)cc3c1=O)OCC2CF	IIIB	p24	-	chronic infection	MOLT-4/HIV-1(IIIB) + MOLT-4	EC50	0.85 µg/mL
CC(C)(C)NC(=O)[C@@H]1C[C@@H]2CCCC[C@@H]2CN1C[C@@H](OC(=O)C(CS)NC(=O)CCONC(=O)CCCCC1SCC2NC(=O)NC21)[C@H](Cc1ccccc1)NC(=O)[C@H](CC(N)=O)NC(=O)c1ccc2ccccc2n1	LAV/LAI	cytopathic effect / MTT	-	-	MT-2	EC50	0.125 µM
COC(=O)N[C@H](C(=O)N[C@@H](Cc1ccccc1)[C@@H](O)CN(Cc1ccc(-c2ccccn2)cc1)NC(=O)[C@@H](NC(=O)OC)C(C)(C)C)C(C)(C)C	IIIB	cytopathic effect / MTT	-	-	MT-4	EC50	0.008 µM
C=CCOC(=O)OCOP(=O)(CO[C@@H](C)Cn1cnc2c(N)ncnc21)OCOC(=O)OCC=C.O=C(O)/C=C/C(=O)O	IIIB	p24	-	-	MT-4	EC50	1.61 µM
CC[C@H](C)[C@H](C(=O)O)N1C[C@H](CN2CCC(c3cc(Cc4ccc(O)cc4)nn3CC)CC2)[C@@H](c2cccc(F)c2)C1	BaL	β-galactosidase	-	50% human serum	HeLa	EC50	<0.011 µM
CC[C@H]1C(=O)Nc2ccc(F)cc2N1C(=O)OC(C)C	Q-1 (RT T139K Y181C Y188D/Y)	cytopathic effect	RT-T139K Y181C Y188D/Y	-	CEM	EC50	0.036 µg/mL
N#Cc1ccc(NC(=S)OCCN2C(=O)c3ccccc3C2=O)cc1	IIIB	p24	-	-	C8166	EC50	<0.1 µM
Cc1cn([C@H]2C[C@H](N=[N+]=[N-])[C@@H](CO)O2)c(=O)[nH]c1=O	LAI	RT activity	-	-	PBMC	EC90	0.2 µM
CC(C)OC(=O)OCOP(=O)(CO[C@H](C)Cn1cnc2c(N)ncnc21)OCOC(=O)OC(C)C.O=C(O)/C=C/C(=O)O	IIIB	p24	-	-	MT-4	EC50	2.31 µM
CCCOc1ccc(Cc2cc(C3CCN(C[C@H]4CN([C@@H](C(=O)O)[C@H](C)CC)C[C@@H]4c4cccc(F)c4)CC3)n(CC)n2)cc1	BaL	β-galactosidase	-	50% human serum	HeLa	EC50	<0.3 µM
Cc1ccnc2c1NC(=O)c1cccnc1N2C1CC1	IIIB	cytopathic effect / MTT	-	-	MT-4	EC50	0.053 µM
O=C1c2cccn2-c2ccc(Cl)cc2S(=O)(=O)N1C1CCC1	IIIB	cytopathic effect / MTT	-	-	MT-4	EC50	7.4 µM
Cc1cn([C@H]2C[C@H](N=[N+]=[N-])[C@@H](CO)O2)c(=O)[nH]c1=O	1617-1 NRTI resistant recombinant	RT activity	RT-T69K K70G V75I F77L F116Y Q151M M184V	-	PBMC	EC50	0.174 µM
CC(=O)c1cn(C/C=C/C(O)CO)c(=O)[nH]c1=O	LAI	RT activity	-	-	PBMC	EC90	>100 µM
C[C@@H]1O[C@H]2OCCC[C@H]2[C@H]1OC(=O)N[C@@H](Cc1ccccc1)[C@H](O)CN1C[C@H]2CCCC[C@H]2C[C@H]1C(=O)NC(C)(C)C	PR-L63P ERS104pre	p24	-	-	PBMC	EC50	0.23 µM
c1ccc2c(CN3CCCNCCNCCCNCC3)cc(CN3CCCNCCNCCCNCC3)cc2c1	AOM	cytopathic effect / MTT	-	-	MT-4	EC50	0.22 µg/mL
O=C1c2ccccc2C(=O)N1CCOC(=S)Nc1ccc(Cl)cc1	IIIB	p24	-	-	C8166	EC50	<0.04 µM
C#C[C@]1(CO)O[C@@H](n2cnc3c(NC(=O)CCCCCC)nc(F)nc32)C[C@@H]1OC(=O)CCCCCC	NL4-3	luminescence	-	pseudotyped	U373-CD4-CXCR4	EC50	0.0094 µM
Cc1ccnc2c1NC(=O)c1cccnc1N2C1CC1	MN	syncytia	-	-	MT-4	EC50	0.02 µM
Fc1cccc(F)c1C1SCc2nc3ccccc3n21	TP1	cytopathic effect / XTT	-	-	CEM + CEM-SS	EC50	2.19 µM
Nc1nc(=O)n([C@@H]2CS[C@H](CO)O2)cc1F	IIIB	p24	-	-	MT-4	EC50	27.7 µM
Fc1c(F)c(CN2CCCNCCNCCCNCC2)c(F)c(F)c1CN1CCCNCCNCCCNCC1	NL4-3	cytopathic effect / MTT	-	-	MT-4	EC50	0.09 µg/mL
N#CCN1C(=O)N(Cc2ccccc2)S(=O)(=O)c2cscc21	-	syncytia	RT-Y188H	-	CEM	EC50	≥60 µM
CC[C@H](C)[C@H](C(=O)O)N1C[C@H](CN2CCC(c3cc(Cc4ccc(OCc5ccccc5)cc4)nn3CC)CC2)[C@@H](c2cccc(F)c2)C1	BaL	β-galactosidase	-	-	HeLa	EC50	<0.0037 µM
C=CCN1C(=O)c2cccn2-c2ccc(Cl)cc2S1(=O)=O	IIIB	cytopathic effect / MTT	-	-	MT-4	EC50	22 µM
CCn1c(Cc2ccccc2)c(C(C)C)[nH]c1=S	IIIB	cytopathic effect / MTT	-	-	MT-4	EC50	5.06 µM
CCn1nc(Cc2cccc3ccccc23)cc1C1CCN(C[C@H]2CN([C@@H](C(=O)O)C(C)(C)C)C[C@@H]2c2cccc(F)c2)CC1	BaL	β-galactosidase	-	-	HeLa	EC90	<0.00014 µM
COC(=O)[C@H](C)NP(=O)(OC[C@@H]1C=C[C@H](n2cc(C)c(=O)[nH]c2=O)O1)Oc1ccc(Br)cc1	X165-8 NRTI resistant	p24	RT-D67N T69N K70R K103N Y181C T215F K219E	-	PBMC	EC50	0.013 µM
O=[N+]([O-])c1cc(CN2CCCNCCNCCCNCC2)cc(CN2CCCNCCNCCCNCC2)c1	NL4-3	cytopathic effect / MTT	-	-	MT-4	EC50	0.134 µg/mL
Nc1ncnc2c1ncn2CCOCP(=O)(O)OCOC(=O)OCc1ccccc1	IIIB	p24	-	-	MT-4	EC50	>30 µM
CCOCn1c(Cc2ccccc2)c(C(C)C)c(=O)[nH]c1=O	Q-1 (RT T139K Y181C Y188D/Y)	cytopathic effect	RT-T139K Y181C Y188D/Y	-	CEM	EC50	2 µg/mL
C#C[C@]1(COC(=O)OCC)O[C@@H](n2cnc3c(N)nc(F)nc32)C[C@@H]1OC(=O)CCCCCCCCC	NL4-3	luminescence	-	pseudotyped	U373-CD4-CXCR4	EC50	0.0114 µM
O=C1c2ccccc2C(=O)N1CCOC(=S)Nc1ccc(F)cc1	IIIB	p24	-	-	C8166	EC50	<0.1 µM
CCn1cc(C(=O)O)c(=O)c2cc(F)c(N3CCNCC3)nc21	IIIB	cytopathic effect / XTT	-	-	MT-4	EC50	>50 µg/mL
Cc1cc(C)cc(Cc2c(C(C)C)nc(SCC(N)=O)n2Cc2ccncc2)c1	IIIB	cytopathic effect / MTT	-	-	MT-4	EC50	0.31 µM
CCn1nc(Cc2ccc(Oc3ccccc3)cc2)cc1C1CCN(C[C@H]2CN([C@@H](C(=O)O)C(C)C)C[C@@H]2c2cccc(F)c2)CC1	BaL	β-galactosidase	-	50% human serum	HeLa	EC90	>0.3 µM